Taken from: PubChem BioAssay AID624099 (ICCB-Longwood, 2012)

- Screen: 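Host factors E2 relies on to silence an HPV18 LCR reporter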 (primary screen)
- System: human C33A cervical carcinoma cells (HPV-negative) stably expressing BPV1 E2 and an HPV18 LCR luciferase reporter
- Knock-down reagent: siRNA pool against human genes, 40 nM
- Timing: 72 h
- Measured: 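Per-well luciferase luminescence, z-scored on each plate against the plate mean and SD with control wells left out, then averaged across three replicate plates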
- Scale: mean z-score and z-score: higher = stronger reporter signal, weaker E2 silencing
- Hit rule: 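Hit if mean z-score reaches 2 and two or more of three replicate z-scores also reach 2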
Here is an unselected part of about 21,000 deposited reagents. Over the whole deposit, 497 (2.4%) were called active. 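Higher z means weaker E2 silencing; only reporter increases were scored, and knock-downs that hurt cell survival may mask genuine repressor factors.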 A number with no mark means an inactive call.

With RANBP1 [SID134311922], what was measured?
mean z-score: 1.14; z-score, replicate A: 1.22; z-score, replicate B: 1.15; z-score, replicate C: 1.07

For PDCD6IP [SID134310331], how do the results read?
mean z-score: 0.8; z-score, replicate A: 1.15; z-score, replicate B: 0.67; z-score, replicate C: 0.57

Which result is listed for OR5D16 [SID134329937]?
mean z-score: 0.29; z-score, replicate A: 0.03; z-score, replicate B: 0.56; z-score, replicate C: 0.27

With LINC01622 [SID134327638], what was measured?
mean z-score: -0.01; z-score, replicate A: 0.09; z-score, replicate B: -0.04; z-score, replicate C: -0.09

With KRT18P55 [SID134322102], what does the deposit list?
mean z-score: 0.02; z-score, replicate A: 0.14; z-score, replicate B: 0.02; z-score, replicate C: -0.11

With CPA1 [SID134311242], how do the results read?
mean z-score: 0.88; z-score, replicate A: 0.61; z-score, replicate B: 1.08; z-score, replicate C: 0.94

What did the screen give for FAM114A1 [SID134319588]?
mean z-score: 0.26; z-score, replicate A: 0.14; z-score, replicate B: 0.51; z-score, replicate C: 0.14

Which result is listed for OGDH [SID134314404]?
mean z-score: 0.23; z-score, replicate A: 0.34; z-score, replicate B: 0.01; z-score, replicate C: 0.35

For MYCBPAP [SID134320343], how do the results read?
mean z-score: -0.44; z-score, replicate A: -0.4; z-score, replicate B: -0.27; z-score, replicate C: -0.65

With C11orf24 [SID134318223], how do the results read?
mean z-score: 0.78; z-score, replicate A: 0.66; z-score, replicate B: 1.53; z-score, replicate C: 0.14

For TACR1 [SID134311163], how do the results read?
mean z-score: -0.24; z-score, replicate A: -0.08; z-score, replicate B: -0.77; z-score, replicate C: 0.14

What is on record for SAMD10 [SID134319289]?
mean z-score: 0.53; z-score, replicate A: 0.89; z-score, replicate B: 0.38; z-score, replicate C: 0.31

With LRRC58 [SID134325747], how do the results read?
mean z-score: 0.27; z-score, replicate A: -0.04; z-score, replicate B: 0.18; z-score, replicate C: 0.68

With NAGA [SID134315451], how do the results read?
mean z-score: 1.21; z-score, replicate A: 1.17; z-score, replicate B: 1.44; z-score, replicate C: 1.02

For CPLX1 [SID134317271], how do the results read?
mean z-score: -1.42; z-score, replicate A: -1.11; z-score, replicate B: -1.24; z-score, replicate C: -1.9

How did the screen score LOC347512 (retired record) [SID134326232]?
mean z-score: 1.11; z-score, replicate A: 1; z-score, replicate B: 1.27; z-score, replicate C: 1.07

What is on record for LOC340549 (retired record) [SID134326251]?
mean z-score: -0.4; z-score, replicate A: 0.03; z-score, replicate B: -0.44; z-score, replicate C: -0.81

How did the screen score KRTAP4-11 [SID134317870]?
mean z-score: 0.32; z-score, replicate A: 0.08; z-score, replicate B: 0.48; z-score, replicate C: 0.41

With LOC389237 (retired record) [SID134327432], what was measured?
mean z-score: -0.99; z-score, replicate A: -1.27; z-score, replicate B: -1.09; z-score, replicate C: -0.59

For SKP2 [SID56478647], what does the deposit list?
mean z-score: -0.65; z-score, replicate A: -0.65; z-score, replicate B: -0.55; z-score, replicate C: -0.74

With SRRM4 [SID134323121], what was measured?
mean z-score: 0.46; z-score, replicate A: 0.89; z-score, replicate B: 0.19; z-score, replicate C: 0.3
